Compound potency records, mixed from different reports. Data source: NIAID ChemDB in PubChem.

Shared fields: host cell toxicity; cells: VERO; endpoint: CC50

Conditions beyond the fields shown may differ between rows. CCn: concentration that lowers growth or viability of the cells by n%.

SMILES	result
CCn1cc(C(N)=O)c(=O)c2ccc(-c3cc(C)nc(C)c3)cc21	>12.5 µg/mL
CCOC(=O)c1cn(Cc2ccc(F)cc2)cc1-c1ccccc1	4 µg/mL
c1cnc2c(c1)ccc1cccnc12	<4.16 µg/mL
O=C(NC(=O)C1N=C(c2ccccc2)c2ccccc2NC1=O)C1CCCC1	2 µM
COc1ccc(-c2cn(C)cc2[N+](=O)[O-])c(Cl)c1	2 µg/mL
Cn1cc(NC(=O)c2cc(NC(=O)CN=C(N)N)cn2C)cc1C(=O)NCCC(=N)N	28.29 µg/mL
Cc1ccccc1C(=O)NC1N=C(c2ccccc2)c2ccccc2NC1=O	3 µM
NC(=O)c1cn(-c2cccc(F)c2)c2cc(-c3ccncc3)ccc2c1=O	>25 µg/mL
S=C(NCCNC(=S)[S][Sn]([c]1ccccc1)([c]1ccccc1)[c]1ccccc1)[S][Sn]([c]1ccccc1)([c]1ccccc1)[c]1ccccc1	<0.41 µg/mL
O=C(Cc1ccc(C(F)(F)F)cc1)NC1N=C(c2ccccc2)c2ccccc2NC1=O	1.5 µM
CC(/C=C/c1ccccc1)=N\NC(=O)c1ccncc1	5.4 µg/mL
CCOC(=O)c1cn(C)cc1-c1ccc(OC)cc1	4 µg/mL
COC(=O)C1=C(C)NC(C)=C(C(=O)OCCCN2CCC(c3ccccc3)(c3ccccc3)CC2)C1c1cccc([N+](=O)[O-])c1.Cl	2.9 µg/mL
CCn1cc2c(=O)ncnc-2c2ccc(-c3ccncc3)cc21	>100 µg/mL
NC(=O)c1c[nH]cc1-c1ccc(Cl)cc1Cl	0.125 µg/mL
CCn1cc(C(=O)N(C)O)c(=O)c2ccc(-c3ccncc3)cc21	>50 µg/mL
O=C(Cc1cccc(C(F)(F)F)c1)NC1N=C(c2ccccc2)c2ccccc2NC1=O	1.5 µM
NC(=O)c1cn(Cc2ccc(Cl)c(Cl)c2)c2cc(-c3ccncc3)ccc2c1=O	>100 µg/mL
O=C(Nc1ccccc1[N+](=O)[O-])NC1N=C(c2ccccc2)c2ccccc2NC1=O	1.5 µM
NC(=O)CCCCC1CCSS1	59 µg/mL
CCn1cc(C2=NCCO2)c(=O)c2ccc(-c3ccncc3)cc21	>12.5 µg/mL
CCCCc1[nH]ccc2c(C)c3nc4ccccc4c3cc12	1.6 µg/mL
CCn1cc(C(N)=O)c(=O)c2ccccc21	>50 µg/mL
O=C1c2ccccc2C(=O)c2sc(Nc3ccc(Cl)cc3)nc21	3 µg/mL
O=C(Cc1cccc([N+](=O)[O-])c1)NC1N=C(c2ccccc2)c2ccccc2NC1=O	1.7 µM
CCn1cc2c(=O)[nH]nc-2c2ccc(-c3ccncc3)cc21	>50 µg/mL
C=C1C(=O)N2c3ccccc3C(C)(C)C2(S)C(=O)N1C	>62.5 µg/mL
O=C1Nc2ccccc2C(c2ccccc2)=NC1NCc1ccco1	50 µM
O=[N+]([O-])/C=C/c1cc2c(ccc3ccccc32)[nH]1	1.09 µg/mL
CCn1cc(C(N)=O)c(=O)c2ccc(-c3cnc(C)s3)cc21	>100 µg/mL

4 of the rows above, restated:

SMILES	result
CCOC(=O)c1cn(C)cc1-c1ccc(OC)cc1	4 µg/mL
O=C(Cc1cccc(C(F)(F)F)c1)NC1N=C(c2ccccc2)c2ccccc2NC1=O	1.5 µM
CCn1cc(C(=O)N(C)O)c(=O)c2ccc(-c3ccncc3)cc21	>50 µg/mL
CCn1cc(C2=NCCO2)c(=O)c2ccc(-c3ccncc3)cc21	>12.5 µg/mL